For this experiment, the target named is TcdB^core (residues 1–1967 of TcdB1, VPI10463 strain, W102A/D286N/D288N/L543A) (Clostridioides difficile (VPI10463 …, UniProt P18177 1-1967, W102A | D286N | D288N | L543A)). Put plainly: cryo-EM structure.

B1: CSPG4^mini (human CSPG4 residues 30–764: two laminin G motifs and first two CSPG repeats) (domain or fragment)
chain: ASFFGENHLEVPVATALTDIDLQLQFSTSQPEALLLLAAGPADHLLLQLYSGRLQVRLVLGQEELRLQTPAETLLSDSIPHTVVLTVVEGWATLSVDGFLNASSAVPGAPLEVPYGLFVGGTGTLGLPYLRGTSRPLRGCLHAATLNGRSLLRPLTPDVHEGCAEEFSASDDVALGFSGPHSLAAFPAWGTQDEGTLEFTLTTQSRQAPLAFQAGGRRGDFIYVDIFEGHLRAVVEKGQGTVLLHNSVPVADGQPHEVSVHINAHRLEISVDQYPTHTSNRGVLSYLEPRGSLLLGGLDAEASRHLQEHRLGLTPEATNASLLGCMEDLSVNGQRRGLREALLTRNMAAGCRLEEEEYEDDAYGHYEAFSTLAPEAWPAMELPEPCVPEPGLPPVFANFTQLLTISPLVVAEGGTAWLEWRHVQPTLDLMEAELRKSQVLFSVTRGARHGELELDIPGAQARKMFTLLDVVNRKARFIHDGSEDTSDQLVLEVSVTARVPMPSCLRRGQTYLLPIQVNPVNDPPHIIFPHGSLMVILEHTQKPLGPEVFQAYDPDSACEGLTFQVLGTSSGLPVERRDQPGEPATEFSCRELEAGSLVYVHRGGPAQDLTFRVSDGLQASPPATLKVVAIRPAIQIHRSTGLRLAQGSAMPILPANLSVETNAVGQDVSVLFRVTGALQFGELQKQGAGGVEGAEWWATQAFHQRDVEQGRVRYLSTDPQHHAYDTVENLALEVQ
notes: source: FreeStyle HEK 293 cells, secreted, purified (Ni-NTA, Superdex-200)
Consider B1, for which the binding result is recorded as “binds”.

(Values after paper PMC8213806 (Nature Communications, 2021).)
